Measured values reported in PMC9642902.
Where “and” joins values, the source holds several entries; their conditions need not be identical. Identical values can stand only once. Like-named read-outs stand apart in the source and are kept apart here.

Columns and labels:
potato ATG8-2.2 (potato) [1] = assay: ITC
potato ATG8-2.2 (potato) [2] = assay: ITC; remark: listed apart in the source

Substance: PiPexRD54 AIM peptide
- Kd (potato ATG8-2.2 (potato) [1]): 93.8 nM
- Kd (potato ATG8-2.2 (potato) [2]): 93.9 nM and 116 nM and 35 nM
- stoichiometry N (potato ATG8-2.2 (potato) [2]): 1.08 and 1.17 and 1.45
